The values below come from PubChem BioAssay AID1259311 (ICCB-Longwood Screening Facility, Harvard Medical School, 2017).

Only a part is listed here, and it is no random draw. Active and inactive are the calls of the source. Rule as the data show it: active = inhibition above about 85%; inactive = the rest.

The nature of this test: growth inhibition of S. aureus RN4220, primary screen, OD600 (AID 1259311).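 Also: plate controls were untreated cells for no effect and reference antibiotic for full effect.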 The note with it: OD600, 16 h, stronger effect = higher value.
As to `O=[N+]([O-])c1ccc(O)c(C=NNc2ccc([N+](=O)[O-])cc2[N+](=O)[O-])c1`, the inhibition was active: 99.1%.
To `O=c1c2cc([N+](=O)[O-])ccc2[nH]c2c([N+](=O)[O-])cc([N+](=O)[O-])cc12` belongs active: 99.3%.
